Data from ChEMBL document CHEMBL2401726, “Expanding chemical diversity of conotoxins: peptoid-peptide chimeras of the sodium channel blocker μ-KIIIA and its selenopeptide analogues” (2013).

Sequences of proteins named here, by UniProt entry; tags and fusion partners are left off.
UniProt P04775, whole entry: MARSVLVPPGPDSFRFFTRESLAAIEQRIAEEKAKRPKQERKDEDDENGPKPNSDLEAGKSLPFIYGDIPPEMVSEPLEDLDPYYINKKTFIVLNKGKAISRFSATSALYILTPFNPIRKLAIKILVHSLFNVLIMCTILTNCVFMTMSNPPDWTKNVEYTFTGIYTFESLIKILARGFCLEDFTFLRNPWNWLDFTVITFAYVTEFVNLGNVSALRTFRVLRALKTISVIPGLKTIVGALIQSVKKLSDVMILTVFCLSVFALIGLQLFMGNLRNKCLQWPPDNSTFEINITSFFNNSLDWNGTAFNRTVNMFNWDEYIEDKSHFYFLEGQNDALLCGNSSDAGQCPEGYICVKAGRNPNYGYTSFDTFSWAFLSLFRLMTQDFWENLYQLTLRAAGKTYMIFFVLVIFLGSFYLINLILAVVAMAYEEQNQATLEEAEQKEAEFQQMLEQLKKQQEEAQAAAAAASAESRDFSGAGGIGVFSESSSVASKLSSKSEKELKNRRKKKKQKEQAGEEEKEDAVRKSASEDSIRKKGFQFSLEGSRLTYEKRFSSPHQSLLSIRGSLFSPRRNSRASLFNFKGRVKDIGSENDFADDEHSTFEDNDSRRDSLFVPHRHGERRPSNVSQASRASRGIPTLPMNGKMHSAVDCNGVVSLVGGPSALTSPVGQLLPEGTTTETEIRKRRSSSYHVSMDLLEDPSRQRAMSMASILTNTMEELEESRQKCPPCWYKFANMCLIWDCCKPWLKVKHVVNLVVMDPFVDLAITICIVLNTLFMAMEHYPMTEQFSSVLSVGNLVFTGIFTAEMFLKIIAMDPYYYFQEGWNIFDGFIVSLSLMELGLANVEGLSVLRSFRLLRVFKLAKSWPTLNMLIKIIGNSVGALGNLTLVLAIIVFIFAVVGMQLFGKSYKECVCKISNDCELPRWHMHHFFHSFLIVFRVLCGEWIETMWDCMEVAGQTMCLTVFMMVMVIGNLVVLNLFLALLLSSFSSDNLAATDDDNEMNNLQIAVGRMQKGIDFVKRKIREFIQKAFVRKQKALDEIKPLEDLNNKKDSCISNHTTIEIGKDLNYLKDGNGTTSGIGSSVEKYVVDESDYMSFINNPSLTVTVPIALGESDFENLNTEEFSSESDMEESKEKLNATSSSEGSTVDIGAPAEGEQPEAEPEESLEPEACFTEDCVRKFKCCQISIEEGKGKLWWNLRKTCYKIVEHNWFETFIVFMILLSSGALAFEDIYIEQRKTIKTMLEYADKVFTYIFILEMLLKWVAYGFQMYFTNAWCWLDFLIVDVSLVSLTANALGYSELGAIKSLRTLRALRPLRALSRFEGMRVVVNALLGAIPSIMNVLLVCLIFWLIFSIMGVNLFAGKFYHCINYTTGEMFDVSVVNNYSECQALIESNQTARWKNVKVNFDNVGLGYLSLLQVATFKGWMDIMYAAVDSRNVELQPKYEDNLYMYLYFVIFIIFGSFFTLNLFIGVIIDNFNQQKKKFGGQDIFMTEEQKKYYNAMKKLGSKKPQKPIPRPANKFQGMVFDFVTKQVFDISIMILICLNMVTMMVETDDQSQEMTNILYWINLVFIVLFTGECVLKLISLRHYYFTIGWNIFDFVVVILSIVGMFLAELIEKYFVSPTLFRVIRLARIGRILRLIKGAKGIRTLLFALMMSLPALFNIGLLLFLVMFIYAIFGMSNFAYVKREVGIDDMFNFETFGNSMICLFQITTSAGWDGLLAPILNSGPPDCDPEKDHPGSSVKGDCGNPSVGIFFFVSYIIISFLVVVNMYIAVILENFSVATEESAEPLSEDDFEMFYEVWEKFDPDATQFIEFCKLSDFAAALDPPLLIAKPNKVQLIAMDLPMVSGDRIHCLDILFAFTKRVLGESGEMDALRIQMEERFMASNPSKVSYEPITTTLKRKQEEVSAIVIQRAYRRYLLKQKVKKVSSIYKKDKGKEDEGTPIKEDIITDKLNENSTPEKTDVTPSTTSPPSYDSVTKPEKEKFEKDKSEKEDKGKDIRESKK

Columns and labels:
[1] = target: Sodium channel protein type 2 subunit alpha (Rattus norvegicus) (UniProt P04775); test: Inhibition of rat voltage-gated sodium channel Nav1.2-mediated current expressed in Xenopus laevis oocytes at 10 uM by two-electrode voltage-clamp electrophysiology relative to control; settings: Oocyte
[2] = target: Sodium channel protein type 2 subunit alpha (Rattus norvegicus) (UniProt P04775); test: Inhibition of rat voltage-gated sodium channel Nav1.2-mediated current expressed in Xenopus laevis oocytes at >10 uM by two-electrode voltage-clamp electrophysiology relative to control; settings: Oocyte

| Compound | inhibition [1] [%] | inhibition [2] [%] |
| --- | --- | --- |
| CCCCN1CC(=O)N[C@@H](Cc2c[nH]c3ccccc23)C(=O)N[C@H]2CSSC[C@H](N)C(=O)N[C@H]3CSSC[C@H](NC(=O)[C@H](CCCNC(=N)N)NC(=O)[C@H](CO)NC(=O)[C@H](Cc4cnc[nH]4)NC(=O)[C@H](CC(=O)O)NC(=O)[C@H](CCCNC(=N)N)NC2=O)C(=O)N[C@H](C(N)=O)CSSC[C@H](NC(=O)[C@H](CC(N)=O)NC3=O)C(=O)N[C@@H](CO)C(=O)N[C@@H](CO)C1=O | 82 | – |
| CN1CC(=O)N[C@@H](Cc2c[nH]c3ccccc23)C(=O)N[C@H]2CSSC[C@H](N)C(=O)N[C@H]3CSSC[C@H](NC(=O)[C@H](CCCNC(=N)N)NC(=O)[C@H](CO)NC(=O)[C@H](Cc4cnc[nH]4)NC(=O)[C@H](CC(=O)O)NC(=O)[C@H](CCCNC(=N)N)NC2=O)C(=O)N[C@H](C(N)=O)CSSC[C@H](NC(=O)[C@H](CC(N)=O)NC3=O)C(=O)N[C@@H](CO)C(=O)N[C@@H](CO)C1=O | 69 | 70 |
| CCCCCCCCN1CC(=O)N[C@@H](Cc2c[nH]c3ccccc23)C(=O)N[C@H]2CSSC[C@H](N)C(=O)N[C@H]3CSSC[C@H](NC(=O)[C@H](CCCNC(=N)N)NC(=O)[C@H](CO)NC(=O)[C@H](Cc4cnc[nH]4)NC(=O)[C@H](CC(=O)O)NC(=O)[C@H](CCCNC(=N)N)NC2=O)C(=O)N[C@H](C(N)=O)CSSC[C@H](NC(=O)[C@H](CC(N)=O)NC3=O)C(=O)N[C@@H](CO)C(=O)N[C@@H](CO)C1=O | 80 | – |
